From US8916516B2, “Treatment of fungal and/or protist infections” (AI2 Limited, priority 2005, dated 2014)

Test: Adherence of fluorescently labelled peptide to surfaces (Example 3)
Conditions: fluorescently tagged GIN1p 40 μM, 15 min

Ac-LRKLRKRLLLRKLRKRLL-NH2 [MU_10]
retention of peptide on contact lens (fluorescence) (Acuvue lens, after 4 washes incl. overnight soak in 25 ml PBS): retains a significant quantity of peptide
level of fluorescence on glass and PLGA-coated cover slips after washes (washes W1-W4 incl. overnight soak): did not decrease noticeably
